Data reported in patent publication US5962294A, “Compositions and methods for the identification and synthesis of sialyltransferases” (The Regents of the University of California, priority 1993, dated 1999).

Target: neuraminidase-treated newborn rat brain membranes

## soluble protein A/STX fusion (expression plasmid AX78) (from UniProt P02976) (enzyme)
  transfer of sialic acid to acceptor (% increase in activity over background): 50
